Common to all, as to assay: Geometric mean of MICs and TI value
Common to all, as to conditions: HC10/GM; 512 μM used as HC10 since HC10 > 256 μM

One data set concerns G− Bacteria. It is filed as cell-based. As for the experimental part:
(§1) The therapeutic potential of antimicrobial agents was valued based on their selectivity toward bacteria in reference to erythrocytes. The TI value was calculated from the results of antibacterial and haemolysis experiments of peptides using the following formula:TI value = HC10 / GMMICs.
(§2) GM was the geometric mean of MICs against all tested bacteria.

Another data set concerns G+ Bacteria. The class given is cell-based. As for the experimental part: as §1, §2
In a further data set the test system is Yeast. The class given is cell-based, Candida albicans. As to the method:
as §1, §2

The results in this text go back to article PMC11274128, “Modification and Synergistic Studies of a Novel Frog Antimicrobial Peptide against Pseudomonas aeruginosa Biofilms” (Antibiotics, 2024).

Bridge positions count the residues as written; N and C are the ends. Ends that are not written are not given here.

“H-GLLSGVLGAGKKIVGLSGR-OH [Peptide 1782-R]”: the “TI Value, G− Bacteria” value in the data set with G− Bacteria amounted to 2.38. The “TI Value, G+ Bacteria” value with G+ Bacteria came to 2.00. Besides, the “TI Value, Yeast” value with Yeast is reported as 2.00.
With “GLLRGVLGAGKKIVCGLSGRC (disulfide 15-21 (inferred)) [Peptide 2057-C, N-terminus modified analogue of Nigrosin-6VL]”, the “TI Value, G− Bacteria” value in the data set on G− Bacteria was 8.00. Moreover, in the data set with G+ Bacteria, the “TI Value, G+ Bacteria” value worked out at 4.00. For the same substance, the “TI Value, Yeast” value with Yeast was found to be 2.00.
The corresponding values for “GLLSGVLGAGKKIVCGLSGR- [Peptide 1885-R, Rana Box modified analogue of Nigrosin-6VL]” are 11.31, 4.00 and 2.00.
